Experimental data: PubChem BioAssay AID1259414 (Drosophila RNAi Screening Center, 2018)
Assay: 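Fly genes that alter Wolbachia amount inside host cells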 (primary screen). Cell system: Drosophila JW18 cells infected with Wolbachia. Reagents: long dsRNA against Drosophila genes, 0.25 µg dsRNA per well of a 384-well plate. Time to read-out: 5 days. Conditions: cells persistently infected with Wolbachia before knock-down; no added drug. Measurement: 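Automated imaging of bacterial rRNA staining divided by host cell count, reported as plate-normalised robust z-score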. Scale: Wolbachia per cell robust z: higher = more Wolbachia per host cell than the plate typical. Call rule: 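Hit when robust z is 1.5 or more, or -1.5 or less, in at least two of three replicates; excludes dsRNAs with several or no targets, genes not expressed in JW18 and well A1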.
The screen tested about 24,000 reagents; shown is a random part of those that have a named target and a result. Of all reagents, about 1,210 (5%) are marked active. 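Inactive calls also include excluded dsRNAs with several or no targets, genes unexpressed in JW18, and well A1, regardless of score.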 Entries without a mark were called inactive. The numbers tell different reagents against one gene apart. A plus sign joins genes that one reagent is predicted to hit. Reagent sequences are not shown.

| gene | reagent | Wolbachia per cell robust z, rep 1 | Wolbachia per cell robust z, rep 2 | Wolbachia per cell robust z, rep 3 |
| --- | --- | --- | --- | --- |
| mbc (myoblast city) | 1 | 0.927 | 0.48 | -0.295 |
| CG1677 | 1 | 0.208 | -1.41 | 0.0411 |
| Ac78C (Adenylyl cyclase 78C) | 1 | 0.526 | 0.0157 | 0.424 |
| Ac78C (Adenylyl cyclase 78C) | 2 | -0.989 | -0.584 | -0.183 |
| Ac78C (Adenylyl cyclase 78C) | 3 | 0.645 | 0.665 | -0.8 |
| Rala (Ras-like protein A) | 1 | -0.486 | 0.0447 | 0.454 |
| Rala (Ras-like protein A) | 2 | -0.391 | 0.975 | -0.508 |
| CG15201 | 1 | -5.05 | -0.902 | -0.225 |
| CG4282 | 1 | -1.14 | -0.737 | -0.375 |
| Atg4a (Autophagy-related 4a) | 1 | 0.316 | -0.307 | -0.44 |
| Atg4a (Autophagy-related 4a) | 2 | -1.01 | -1.21 | -8.32 |
| Nplp2 (Neuropeptide-like precursor 2) | 1 | 0.0474 | -0.463 | 0.496 |
| iotaTry (iotaTrypsin) | 1 | -0.813 | -1.11 | -0.225 |
| iav (inactive) | 1 | -0.0556 | -0.732 | -1.03 |
| iav (inactive) | 2 | 0.342 | 1.34 | -1.5 |
| Dsp1 (Dorsal switch protein 1) | 1 | 0.535 | 0.656 | 0.718 |
| Dsp1 (Dorsal switch protein 1) | 2 | -0.115 | -0.0522 | -0.235 |

Entries listed so far whose target name begins with C or c:
| gene | reagent | Wolbachia per cell robust z, rep 1 | Wolbachia per cell robust z, rep 2 | Wolbachia per cell robust z, rep 3 |
| --- | --- | --- | --- | --- |
| CG1677 | 1 | 0.208 | -1.41 | 0.0411 |
| CG15201 | 1 | -5.05 | -0.902 | -0.225 |
| CG4282 | 1 | -1.14 | -0.737 | -0.375 |

Additional reagents follow.
| gene | reagent | Wolbachia per cell robust z, rep 1 | Wolbachia per cell robust z, rep 2 | Wolbachia per cell robust z, rep 3 |
| --- | --- | --- | --- | --- |
| mIF2 + CR40068 | 1 | 1.38 | 0.824 | 1.57 |
| TSG101 (Tumor susceptibility gene 101) | 1 | -0.277 | 0.647 | -0.413 |
| CG11977 | 1 | -0.0141 | 0.33 | 0.324 |
| Eogt (EGF-domain O-GlcNAc transferase) | 1 | 0.53 | -0.592 | -12.9 |
| Eogt (EGF-domain O-GlcNAc transferase) | 2 | 0.506 | -0.61 | -0.647 |
| Or24a (Odorant receptor 24a) | 1 | 0.0501 | 0.384 | -0.447 |
| Hrb98DE (Heterogeneous nuclear ribonucleoprotein at 98DE) | 1 | -2.13 | -0.332 | 1.64 |
| Hrb98DE (Heterogeneous nuclear ribonucleoprotein at 98DE) | 2 | 0.311 | -1.22 | -0.501 |
| Or94b (Odorant receptor 94b) | 1 | 0.656 | 0.205 | 1.23 |
| Or94b (Odorant receptor 94b) | 2 | 0.177 | 0.294 | -4.99 |
| lncRNA:CR32111 (long non-coding RNA:CR32111) | 1 | -0.164 | 0.539 | -0.596 |
